The source of these data is article PMC9241695, “Selective Metal Chelation by a Thiosemicarbazone Derivative Interferes with Mitochondrial Respiration and Ribosome Biogenesis in Candida albicans” (Microbiology Spectrum, 2022).

The subject of this series is C. albicans SC5314. In words: RNA-seq transcriptional analysis. It is filed as cell-based, Candida albicans. Conditions: for Downregulated genes / Upregulated genes / Differentially expressed genes: 6 h; for Differentially expressed genes: |log2FoldChange| > 1, P-value < 0.05. The protocol: C. albicans SC5314 cells were inoculated into RPMI 1640 medium at a concentration of 1 × 10^7 cells/mL and incubated at 30°C for 6 h. The cells were then harvested, and RNA extraction was performed with the Yeast RNA Kit (OMEGA, Guangzhou, China). RNA purity was evaluated using a Nanodrop-2000, and RNA integrity was assessed using the RNA Nano 6000 detection kit. RNA-Seq libraries are prepared using NEB Next Ultra RNA Library Prep Kit (NEB, MA, USA) for Illumina. The cDNA library quality was quantified first by using Qubit 2.0 Fluorometer, detected on Agilent 2100 bioanalyzer. Clustering was performed in the cBot cluster generation system. After cluster generation, the library preparations were sequenced on the Illumina Novaseq platform. Library construction and sequencing were performed by Novogene (Beijing, China). Each sample was analyzed in triplicate.
The raw data in fastq format were first processed by an internal perl script. In this step, clean data were obtained by applying various processing methods. All subsequent downstream analyses were based on high-quality clean data. The clean reads were individually mapped to the C. albicans SC5314 reference genome using HISAT2 (v2.0.5). The fragments per kilobase of transcript per million mapped reads (FPKM) value was calculated for each gene, and the read counts were mapped to the genes. The DESeq2R package (1.20.0) was used to analyze differences in expression between two groups with biological replication. Genes with an adjusted P value < 0.05 and |log2FoldChange| > 1 as detected by DESeq2 were considered DEGs. The RNA sequencing data have been submitted to the Gene Expression Omnibus (GEO) under accession number GSE179537.

As to `C/C(=N\NC(=S)N(C)C)c1ccccn1` [Compound 19ak], for the setting “0.5 μg/mL”, the Downregulated genes is on record as 1,285 genes, the Upregulated genes is reported as 1,347 genes and the Differentially expressed genes is recorded as 2,632 genes. Where the note is “2 μg/mL”, the Downregulated genes is 1,635 genes, the Upregulated genes is 1,700 genes and the Differentially expressed genes is recorded as 3,335 genes. The “Genes of mitochondrial respiratory chain complexes downregulated” value (after 19ak exposure) is listed as 48 genes.
